# Data: publication PMC4763181
# Tested on: C[S+](CC[C@H](N)C(=O)O)C[C@H]1O[C@@H](n2cnc3c(N)ncnc32)[C@H](O)[C@@H]1O
# Test: purified protein
# Settings: HEK nucleosomes as co-substrate, 25 nM enzyme, 50 mM Tris pH 8.8, 5 mM MgCl2, 4 mM DTT, room temperature, 1 h, labelled compound (3H-AdoMet diluted with unlabelled AdoMet)
substance,measurement,value
PfSET7FL (Plasmodium falciparum 3D7; S122A/T784A),Km,48 ± 7 µM
same,kcat,0.0222 to 0.0417 s⁻¹
